# Source: patent publication US20170253607A1
# Molecular target: HIV-1 PR (Human immunodeficiency virus type 1 group M subtype B, UniProt P04585)
# Experiment: HIV-protease inhibitory activity assay (FRET peptide substrate)
# Type: biochemical
# Conditions: Test Example 1
row,SMILES,IC50
1,COc1ccc(S(=O)(=O)N(CC(C)C)C[C@@H](O)[C@H](Cc2ccc(OCCOc3ccc(-c4sc5c(c4C(=O)O)CC(C)(C)CC5)c(C)c3)cc2)NC(=O)O[C@H]2CO[C@@]3(C)OCC[C@@H]23)cc1,2.14 nM
2,CC(C)CN(C[C@@H](O)[C@H](Cc1ccccc1)NC(=O)O[C@H]1CO[C@@]2(C)OCC[C@@H]12)S(=O)(=O)c1ccc(NCc2ccccc2-c2sc3c(c2C(=O)O)CC(C)(C)CC3)cc1,1.22 nM
3,COc1ccc(S(=O)(=O)N(CC(C)C)C[C@@H](O)[C@H](Cc2ccc(NC3CN(c4ccc(-c5sc6c(c5C(=O)O)CC(C)(C)CC6)cc4)C3)cc2)NC(=O)O[C@H]2CO[C@@]3(C)OCC[C@@H]23)cc1,5.49 nM
4,COc1ccc(S(=O)(=O)N(CC(C)C)C[C@@H](O)[C@H](Cc2ccc(NCc3ncccc3-c3ccccc3-c3sc4c(c3C(=O)O)CC(C)(C)CC4)cc2)NC(=O)O[C@H]2CO[C@@]3(C)OCC[C@@H]23)cc1,1.71 nM
5,CC(C)CN(C[C@@H](O)[C@H](Cc1ccccc1)NC(=O)O[C@H]1CO[C@@]2(C)OCC[C@@H]12)S(=O)(=O)c1ccc(NCc2ccc(-c3sc4c(c3C(=O)O)CC(C)(C)CC4)cc2)cc1,1.69 nM
6,CC(C)CN(C[C@@H](O)[C@H](Cc1ccc(OCc2ccc3ccccc3c2C(=O)O)cc1)NC(=O)O[C@H]1CO[C@@]2(C)OCC[C@@H]12)S(=O)(=O)c1ccc2ncsc2c1,0.88 nM
7,COc1ccc(S(=O)(=O)N(CC(C)C)C[C@@H](O)[C@H](Cc2ccc(N(C)Cc3ccc(C(F)(F)F)cc3C(=O)Nc3sc4c(c3C(=O)O)CC(C)(C)CC4)cc2)NC(=O)O[C@H]2CO[C@@]3(C)OCC[C@@H]23)cc1,6.24 nM
8,CC1(C)CCc2sc(-c3cccc(CNC(=O)OC[C@]45OCC[C@H]4[C@@H](OC(=O)N[C@@H](Cc4ccccc4)[C@H](O)CN(CC(F)F)S(=O)(=O)c4ccc6ncsc6c4)CO5)c3)c(C(=O)O)c2C1,2.46 nM
9,CC(C)CN(C[C@@H](O)[C@H](Cc1ccc(OCc2ccc(-c3ccccc3)cc2C(N)=O)cc1)NC(=O)O[C@H]1CO[C@@]2(C)OCC[C@@H]12)S(=O)(=O)c1ccc2ncsc2c1,1.07 nM
10,COc1ccc(S(=O)(=O)N(CC(C)C)C[C@@H](O)[C@H](Cc2ccc(OCc3ccccc3-c3sc4c(c3C(=O)O)C(C)(C)CC4)cc2)NC(=O)O[C@H]2CO[C@@]3(C)OCC[C@@H]23)cc1,1.88 nM
11,COc1ccc(S(=O)(=O)N(CC(C)C)C[C@@H](O)[C@H](Cc2ccc(OCc3ccccc3-c3sc4c(c3C(=O)O)C(O)C(C)(C)CC4=O)cc2)NC(=O)O[C@H]2CO[C@@]3(C)OCC[C@@H]23)cc1 (some centres unmarked),0.97 nM
12,COc1ccc(S(=O)(=O)N(CC(C)C)C[C@@H](O)[C@H](Cc2ccc(NCc3ccc(N4CCCCC4=O)cc3-c3sc4c(c3C(=O)O)CC(C)(C)CC4)cc2)NC(=O)O[C@H]2CO[C@@]3(C)OCC[C@@H]23)cc1,2.07 nM
13,COc1ccc(S(=O)(=O)N(CC(C)C)C[C@@H](O)[C@H](Cc2ccc(OCc3ccccc3-c3c(O)c4ccccc4oc3=O)cc2)NC(=O)O[C@H]2CO[C@H]3OCC[C@H]32)cc1,1.06 nM
14,"COc1ccc(S(=O)(=O)N(CC(C)C)C[C@@H](O)[C@H](Cc2ccc(NCC3CCCCC3C(=O)Nc3sc4c(c3C(=O)O)CC(C)(C)CC4)cc2)NC(=O)O[C@H]2CO[C@@]3(C)OCC[C@@H]23)cc1 (single isomer, unassigned) [I-624]",3.77 nM
15,COc1ccc(S(=O)(=O)N(CC(C)C)C[C@@H](O)[C@H](Cc2ccc(NC[C@H]3CCCC[C@@H]3c3sc4c(c3C(=O)O)CC(C)(C)CC4)cc2)NC(=O)O[C@H]2CO[C@@]3(C)OCC[C@@H]23)cc1,2.92 nM
16,COc1ccc(S(=O)(=O)N(CC(C)C)C[C@@H](O)[C@H](Cc2ccc(-c3ccc(Cn4nc(C(=O)O)c5c4CCC(C)(C)C5)cc3)cc2)NC(=O)O[C@H]2CO[C@@]3(C)OCC[C@@H]23)cc1,1.95 nM

row,SMILES,IC50
1,CC(C)CN(C[C@@H](O)[C@H](Cc1ccccc1)NC(=O)O[C@H]1CO[C@@]2(C)OCC[C@@H]12)S(=O)(=O)c1ccc(NCc2cccc(-c3sc4c(c3C(=O)O)CC(C)(C)CC4)c2)cc1,1.12 nM
2,COc1ccc(S(=O)(=O)N(CC(C)C)C[C@@H](O)[C@H](Cc2ccc(OCc3ccc(-c4sc5c(c4C(=O)O)CC(C)(C)CC5)cc3)cc2)NC(=O)O[C@H]2CO[C@@]3(C)OCC[C@@H]23)cc1,1 nM
3,CCNc1nc2ccc(S(=O)(=O)N(CC(C)C)C[C@@H](O)[C@H](Cc3ccc(OCc4ccccc4-c4sc5c(c4C(=O)O)CC(C)(C)CC5)cc3)NC(=O)O[C@H]3CO[C@@]4(C)OCC[C@@H]34)cc2s1,51 nM
4,COc1ccc(S(=O)(=O)N(CC(C)C)C[C@@H](O)[C@H](Cc2ccccc2)NC(=O)O[C@H]2CO[C@@]3(CNCc4ccc(-c5sc6c(c5C(=O)O)CC(C)(C)CC6)cc4)OCC[C@@H]23)cc1,1.97 nM
5,COc1ccc(S(=O)(=O)N(CC(C)C)C[C@@H](O)[C@H](Cc2ccc(NC[C@H]3CCCCN3C(=O)Nc3sc4c(c3C(=O)O)CC(C)(C)CC4)cc2)NC(=O)O[C@H]2CO[C@@]3(C)OCC[C@@H]23)cc1,2.11 nM
6,CC(C)CN(C[C@@H](O)[C@H](Cc1ccc(OCc2ccccc2-c2sc3c(c2C(=O)O)CC(C)(C)CC3)cc1)NC(=O)O[C@H]1CO[C@@]2(C)OCC[C@@H]12)S(=O)(=O)c1ccc2nc(N3CCCC3)sc2c1,17.7 nM
7,COc1ccc(S(=O)(=O)N(CC(C)C)C[C@@H](O)[C@H](Cc2ccc(OC[C@H]3COCC[C@H]3c3sc4c(c3C(=O)O)CC(C)(C)CC4)cc2)NC(=O)O[C@H]2CO[C@@]3(C)OCC[C@@H]23)cc1,1.86 nM
8,"COc1ccc(S(=O)(=O)N(CC(C)C)C[C@@H](O)[C@H](Cc2ccc(OCC3CCCCC3c3sc4c(c3C(=O)O)CC(C)(C)CC4)cc2)NC(=O)O[C@H]2CO[C@@]3(C)OCC[C@@H]23)cc1 (single isomer, unassigned) [I-10-1]",5.17 nM
9,CC(C)CN(C[C@@H](O)[C@H](Cc1ccc(OCc2ccccc2-c2sc3c(c2C(=O)O)CC(C)(C)CC3)cc1)NC(=O)O[C@H]1CO[C@@]2(C)OCC[C@@H]12)S(=O)(=O)c1ccc2nc(N(C)C3CCCCC3)sc2c1,0.73 nM
10,COc1ccc(S(=O)(=O)N(CC(C)C)C[C@@H](O)[C@H](Cc2ccc(N(C)Cc3cccc4c(-c5sc6c(c5C(=O)O)CC(C)(C)CC6)cccc34)cc2)NC(=O)O[C@H]2CO[C@@]3(C)OCC[C@@H]23)cc1,12.1 nM
11,COc1ccc(S(=O)(=O)N(CC(C)C)C[C@@H](O)[C@H](Cc2ccc(OCc3ccc(-c4ccc(F)cc4F)cc3-c3nnn(C(C)(C)C)n3)cc2)NC(=O)O[C@H]2CO[C@@]3(C)OCC[C@@H]23)cc1,3.38 nM
12,COc1ccc(S(=O)(=O)N(CC(C)C)C[C@@H](O)[C@H](Cc2ccc(OCc3ccccc3-c3sc4c(c3C(=O)O)CC(=O)CC4)cc2)NC(=O)O[C@H]2CO[C@@]3(C)OCC[C@@H]23)cc1,0.75 nM
13,COc1ccc(S(=O)(=O)N(CC(C)C)C[C@@H](O)[C@H](Cc2ccc(OCc3cccc(C(=O)O)c3-c3ccc(F)cc3F)cc2)NC(=O)O[C@H]2CO[C@H]3OCC[C@H]32)cc1,0.74 nM
14,CC(C)CN(C[C@@H](O)[C@H](Cc1ccc(OCc2ccccc2-c2ccccc2C(N)=O)cc1)NC(=O)O[C@H]1CO[C@@]2(C)OCC[C@@H]12)S(=O)(=O)c1ccc2ncsc2c1,0.84 nM
15,COc1ccc(S(=O)(=O)N(CC(C)C)C[C@@H](O)[C@H](Cc2ccc(NC[C@H]3COCC[C@H]3c3sc4c(c3C(=O)O)CC(C)(C)CC4)cc2)NC(=O)O[C@H]2CO[C@@]3(C)OCC[C@@H]23)cc1,1.67 nM
16,COc1ccc(S(=O)(=O)N(CC(C)C)C[C@@H](O)[C@H](Cc2ccc(N(C)Cc3cc4c(cc3-c3sc5c(c3C(=O)O)CC(C)(C)CC5)OCC(=O)N4)cc2)NC(=O)O[C@H]2CO[C@@]3(C)OCC[C@@H]23)cc1,3.29 nM
